System: Middle East respiratory syndrome-related coronavirus
Assay: Antiviral activity against MERS-CoV assessed as reduction in viral infection preincubated with virus for 30 mins followed by Huh-7 cells addition and culture replaced with fresh medium after 12 hrs post infection measured after 48 hrs by fluorescence assay

CC[C@H](C)[C@H](NC(=O)[C@H](Cc1ccc(O)cc1)NC(=O)[C@H](CO)NC(=O)[C@H](CCC(=O)O)NC(=O)[C@H](CCC(=O)O)NC(=O)[C@H](CC(C)C)NC(=O)[C@H](CCCCN)NC(=O)[C@H](CCCCN)NC(=O)[C@@H](NC(=O)[C@@H](NC(=O)[C@H](CCC(=O)O)NC(=O)[C@H](CCC(=O)O)NC(=O)[C@H](CC(C)C)NC(=O)[C@H](CCCCN)NC(=O)[C@H](CCCCN)NC(=O)[C@H](CCSC)NC(=O)[C@H](CCC(=O)O)NC(=O)[C@H](Cc1ccc(O)cc1)NC(=O)[C@H](CCC(=O)O)NC(=O)[C@H](CC(C)C)NC(=O)[C@H](CC(=O)O)NC(=O)[C@H](CC(C)C)NC(=O)[C@H](CC(C)C)NC(=O)[C@@H](NC(=O)[C@@H](NC(=O)[C@H](CC(N)=O)NC(=O)[C@@H](NC(=O)[C@H](CCC(N)=O)NC(=O)[C@@H](NC(=O)[C@H](CC(C)C)NC(=O)[C@H](CO)NC(C)=O)[C@@H](C)O)[C@@H](C)CC)[C@@H](C)O)[C@@H](C)O)C(C)C)C(C)C)C(=O)N[C@@H](CC(=O)O)C(=O)N[C@@H](CC(C)C)C(=O)N[C@@H](CCCCN)C(=O)N[C@@H](CCC(=O)O)C(=O)N[C@@H](CC(C)C)C(N)=O
IC50: 450 nM
